Construct, isoform or probe ends are uncertain for at least one entry.

The target in data set [1] is His6-CpxR, phosphorylated (CpxR~P) (Salmonella enterica serovar Typhimurium) (UniProt Q8ZKR6). The data set can be described thus: DNase I footprinting. The note with it: acetyl phosphate-phosphorylated CpxR, 10 mM Tris pH 7.4, 10 mM MgCl2, 100 mM KCl, 10% glycerol, 2 mM DTT, 30 uM BSA, 0.15 pmol DNA, 0-23 pmol CpxR~P in 10 ul, 20 min room temperature, 4% native gel, recombinant protein, protein details: His6, probe letters rebuilt from the primers and the genome.

For data set [2] the target is unchanged. The data set can be described thus: EMSA. The note with it: acetyl phosphate-phosphorylated CpxR; 10 mM Tris pH 7.4, 10 mM MgCl2, 100 mM KCl, 10% glycerol, 2 mM DTT, 30 uM BSA; 0.15 pmol DNA, 0-23 pmol CpxR~P in 10 ul; 20 min room temperature; 4% native gel; recombinant protein; protein details: His6; probe letters rebuilt from the primers and the genome.
The mark [3] stands for this setting: label: DIG on non-coding strand.

For the sequence “AGTTGTCTGGCTGGTTGGCTGGCGTAAAACTCGTTGAGATTTTTTATCGCTCAACGCCGGTTGTGTCACGCAGGTACATATTATCACTCGAGGCAATACTCAGGCCGCAAGTCAATGTCGTCCCGGTCGTATGTAAAAGTATGTGAATAGGGCGGGCGAAAGCGGCTAACAAAGAGGCAGCGTGAAGGATAATGTGTATAATGCGGCCCTAATAATTCATCATCTATCACAGAGGAACATGTATGGGTGGTATCAGTATTTGGCAGTTGTTGATTGTTGCCGTTATCGTCGTACTGCTGTTCGGCACCAAAAAACTCGGTTCCATCGGTTCCGATCTTGGCGCGTCTATCAAAGGCTTTAAAAAGGCCATGAGCGATGATGATGCCAAACAGGATAAAACCAGTCAGGACGCTGATTTTACCGCTAAATCTATCGCGGATAAGCAAGGCGAAGCGAAAAAGGAAGACGCTAAAAGCCAAGATAAAGAGCAGGTATAATCCGTGTTTGATATCGGTTTTAGCGAA (double strand) [tatA-A footprint fragment (coding strand label)]”, the binding result in data set [1] (label: DIG on coding strand) is “binds”.
In the case of “CATGTTTGTGGCACTATCCGCTAGCGTAGCGACAGAAGATATTCATCGTTGTAAAAAAAATGGGATTCATCATTACATTACAAAACCAGTGACATTGGCTACCTTAGCTCGCTACATCAGTATTGCCGCAGAATACCAACTTTTACGAAATATAGAGCTACAGGAGCAGGATCCGAGTCGCTGCTCAGCGCTACTGGCGACAGATGATATGGTCATTAATAGCAAGATTTTCCAATCACTGGACCTCTTGCTGGCTGATATTGAAAATGCCGTATCGGCTGGAGAAAAAATCGATCAGTTAATTCACACATTAAAAGGCTGTTTAGGTCAAATAGGGCAGACTGAATTGGTATGCTATGTCATAGACATTGAGAATCGCGTAAAAATGGGGAAAATCATCGCGCTGGAGGAACTAACCGACTTACGCCAGAAAATACGTATGATCTTCAAAAACTACACCATTACTTAATATTATCTTAATTTTCGCGAGGGCAGCAAAATGAAAGAATATAAGATCTTATTAGTAGACG (double strand) [ssrB-B footprint fragment (non-coding strand label)]”, the binding result in data set [1] (setting [3]) is “binds”.
As for “CCGATAGAGGTAAATGCTGTTGCCGGATCAAAAGAGTGCCGGGTAAAGACCCGTAAACGTGCTTTTTCTCACATTTCAATGAGTTATATAGATATTTATATAACGAAAACCACTAATAGCTGATAATTTCATTTACATTATCAATATCAGAATATTCCACTATATAAAAAGACGCTATTTTATTAATAATCTTGAAAATATGAGTAAATACAGATTAATAGATAATATGAATGTGTTAATCTGTTGTCAGTGAATACCGAAAACAGCAGAAAGGAAATACTGTGAACAATCAAATGAA (double strand) [eco promoter]”, the binding result in data set [2] is recorded as “binds”.
Consider “CCTGTTATCGGCGCCTGTGCCGGAGCAGCCATATATCGCTATTTTATTGGTAAGAATTTACCTTGTAACCGCTGTGAACTGTAAGGAAATGCGAACCAGATTCACAGCAATGATGTATCGTAAAAACAGGTGAGATAATTTCGTGATCTGCTTTCACGAACTGATCAAAACGTCTCCCAGCAATGGGAGACTTTTGATATTGTCATTGTACTTTTTATCAGGGCCAGGATAATGGTAATAAAAAGTGAATGTAAATAATGTGTTTTGTTTATAACAATAAATTAACTGAGGGGTTTTATCATG (double strand) [pocR promoter]”, for which, in data set [2], the binding result is “binds”.
Still for that read-out and setting: under “GACAACATCAGCAACGATGTCGTTAGCCAGATAACGTCGCATCACCGTAATGGTAAATCATTCCATCATGATTATAGATTGCTTATTATTCACCTGAGCATCAAATTCTATTTCTTAACTTCAATATAAGGTAAAAATGCGTCAAGTTCTCTGGCGTAATAAATGTACTCTTGTCCGACGATTTGACAAGATGAAAACTTCATCACCTCTCCAGATTACATCTGAATATGAGGACAAGAGAAATG (double strand) [pgtE promoter]” stands “binds”; under “GATATGGTCATTAATAGCAAGATTTTCCAATCACTGGACCTCTTGCTGGCTGATATTGAAAATGCCGTATCGGCTGGAGAAAAAATCGATCAGTTAATTCACACATTAAAAGGCTGTTTAGGTCAAATAGGGCAGACTGAATTGGTATGCTATGTCATAGACATTGAGAATCGCGTAAAAATGGGGAAAATCATCGCGCTGGAGGAACTAACCGACTTACGCCAGAAAATACGTATGATCTTCAAAAACTACACCATTACTTAATATTATCTTAATTTTCGCGAGGGCAGCAAAAT (double strand) [ssrB promoter]”, “binds”.
“GCGCCGTTCTGGGTCGAAAAAATGCCAGAAATACCTGAACTGGTGTACGACAGTTTGCGCCAGGGCAAATATTTACAGCACAGTGTTGATAAGATTGCGCGCGAGTTACAGGTAAACCATGTGCGCCAAAGTCAGTCTCGTTATTTATTGGGAATTGGCGCAACGCTGTTACTGAGCGGGTCATTCTTACTCGTCAACCGCCCTGAATGGGGATTGATGCCTGGCTGGCTCATGGTCGGCGGCGTAGTTGTCTGGCTGGTTGGCTGGCGTAAAACTCGTTGAGATTTTTTATCGCTCAACGCCGGTTGTGTCACGCAGGTACATATTATCACTCGAGGCAATACTCAGGCCGCAAGTCAATGTCGTCCCGGTCGTATGTAAAAGTATGTGAATAGGGCGGGCGAAAGCGGCTAACAAAGAGGCAGCGTGAAGGATAATGTGTATAATGCGGCCCTAATAATTCATCATCTATCACAGAGGAACATGTATGGGTGGTATCAGTATTTGGCAGTTGTTGATTGTTG (double strand) [tatA-B footprint fragment (non-coding strand label)]”: the binding result in data set [1] (setting [3]) is “binds”.

For the origin of these results see publication PMC6361445.
